# Vif LAI: effect of single changes on growth against APOBEC3G

Data from the supplement of Langley et al. 2025, preprint, doi:10.1101/2025.10.20.683452.

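Pooled viruses with one designed change each in Vif went through two 72 h rounds in SupT1 cells expressing APOBEC3G. Frequencies after the second round, in three biological replicates, were compared with the merged pool after the first round.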

Scanned stretch, residues 12 to 115 of Vif from HIV-1 LAI (a laboratory-adapted subtype B strain):
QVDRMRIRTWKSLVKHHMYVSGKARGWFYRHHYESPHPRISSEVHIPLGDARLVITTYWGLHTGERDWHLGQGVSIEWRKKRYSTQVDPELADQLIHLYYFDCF

Values are log2 enrichment relative to wild type (0); lower means weaker defence against APOBEC3G and poorer growth.
A change reads original residue, position, new residue.
This list holds changes to proline only.
The median of three replicates is given, with the replicates in brackets.
Input reads are the counts in the merged round-one pool, before selection.
The scan is noisy: the rank correlation of replicates is about 0.4 to 0.65, and variants with under about 50 input reads tend to read too high.

D14P (input reads 505) read -0.78 (-0.78 / 1.05 / -1.85).
R15P (input reads 437) read -0.72 (-0.42 / -2.47 / -0.72).
R17P (input reads 119) read 0.14 (0.14 / 4.08 / -0.80).
T20P (input reads 625) read -1.79 (1.94 / -2.92 / -1.79).
W21P (input reads 190) read -1.21 (-1.21 / -2.09 / -0.63).
K22P (input reads 357) read -1.94 (-1.94 / 1.53 / -2.07).
S23P (input reads 47) read 1.47 (1.47 / 4.41 / 1.25).
L24P (input reads 824) read -3.69 (-2.66 / -3.69 / -3.80).
H27P (input reads 1428) read -1.09 (-0.66 / -2.38 / -1.09).
H28P (input reads 1092) read 1.38 (2.23 / -0.48 / 1.38).
Y30P (input reads 463) read -1.30 (-0.50 / -3.02 / -1.30).
V31P (input reads 351) read 0.78 (0.78 / -3.58 / 1.05).
S32P (input reads 112) read 1.02 (0.09 / 4.22 / 1.02).
G33P (input reads 300) read -1.57 (-1.12 / -2.62 / -1.57).
A35P (input reads 161) read -0.88 (-1.01 / -0.88 / 0.58).
R36P (input reads 483) read -1.39 (-0.70 / -2.06 / -1.39).
G37P (input reads 681) read -1.75 (-1.35 / -2.19 / -1.75).
F39P (input reads 413) read -1.23 (-0.69 / -2.40 / -1.23).
Y40P (input reads 536) read -1.93 (-2.63 / -0.90 / -1.93).
R41P (input reads 1370) read -1.88 (-1.50 / -2.83 / -1.88).
H42P (input reads 1103) read -0.40 (1.91 / -2.41 / -0.40).
E45P (input reads 527) read -0.55 (-0.55 / -2.72 / 3.62).
H48P (input reads 108) read -2.52 (-2.52 / -3.82 / -2.26).
R50P (input reads 836) read -4.55 (-3.61 / -4.55 / -4.73).
I51P (input reads 433) read -3.12 (-3.30 / 1.41 / -3.12).
S52P (input reads 529) read -3.60 (-3.60 / -4.33 / -3.42).
S53P (input reads 710) read -0.05 (-0.05 / 4.09 / -0.69).
V55P (input reads 82) read 0.04 (-0.03 / 0.04 / 4.27).
I57P (input reads 1545) read -2.74 (-2.17 / -3.74 / -2.74).
L59P (input reads 434) read -1.18 (-1.18 / 2.04 / -2.34).
D61P (input reads 276) read -2.67 (-2.67 / -5.17 / -2.47).
A62P (input reads 221) read -3.26 (-3.58 / -3.09 / -3.26).
V65P (input reads 419) read -2.91 (-2.91 / -1.53 / -4.18).
I66P (input reads 436) read -1.88 (-1.88 / -0.25 / -2.49).
W70P (input reads 796) read -2.04 (-0.45 / -3.02 / -2.04).

Extract of 4 entries:

substitution,input reads,log2 enrichment (median)
I51P,433,-3.12 (-3.30 / 1.41 / -3.12)
H42P,1103,-0.40 (1.91 / -2.41 / -0.40)
T20P,625,-1.79 (1.94 / -2.92 / -1.79)
F39P,413,-1.23 (-0.69 / -2.40 / -1.23)

Positive scores are uncertain; some enriched variants did not exclude APOBEC3G in a separate test.
Not every substitution is listed.